Compound potency records, mixed from different reports. Data source: NIAID ChemDB in PubChem.

All rows: tests in culture

Percent inhibition refers to the dose given; in toxicity tests it is the harm to the cells. ECn: concentration that inhibits the pathogen or its effect by n%. Neighbouring rows are from separate reports. Two numbers with a dash give a range or band. MIC50, MIC90 and the like: level of inhibition, or share of isolates inhibited. An empty or dashed field is not shown.

compound,organism,strain,cells,method,conditions,endpoint,tested at,result
COc1ccc(CN2C[C@H](O)Cn3c(c4n(c3=O)CCN(C(=O)c3ccc(Br)c(Cl)c3)C4)C2=O)c(F)c1,Hepatitis B virus,,HepG2.117,PCR,,EC50,,0.1–0.5 µM
Nc1ncnc2c1ncn2[C@@H]1C=C[C@@H](O)[C@H]1O,Measles virus,,CV-1,cytopathic effect,,EC50,,1 µg/mL
Oc1ccccc1N=Cc1cccc(O)c1O,Cryptococcus gattii,23/10993,,,,MIC99,,4 µg/mL
O=C(Nc1ccc2cc(S(=O)(=O)[O-])cc(S(=O)(=O)[O-])c2c1)c1ccccc1,Rhinovirus,,Human amnion AV3 cells,cytopathic effect,,inhibition,50 µg/mL,8%
Cc1cn([C@@H]2O[C@H](CO)[C@@H](O)[C@@H]2F)c(=O)nc1N,Varicella zoster virus,Ohtomo,HELF,plaque count,,inhibition,0.01 µg/mL,100%
Nc1cccc(S(=O)(=O)O)c1,Adenovirus,TYPE 3,Human embryonic lung cells,cytopathic effect,,inhibition,5 µg/mL,0%
Nc1nc2c(ncn2COCCO)c(=O)[nH]1,Varicella zoster virus,Ohtomo,HELF,plaque count,,inhibition,1 µg/mL,100%
Oc1cccc(C=Nc2ccccc2O)c1,Cryptococcus gattii,L24/01,,,,MIC99,,5.7 µg/mL
CN[C@H]1CC[C@@H](c2ccc(Cl)c(Cl)c2)c2ccccc21,Cryptococcus neoformans,92BC1-86,,broth dilution,,MFC,,8 µg/mL
O=S(=O)([O-])c1ccc(O)c2ccccc12,Herpes simplex virus,,Human conjunctiva cells,cytopathic effect,,inhibition,5 µg/mL,0%
CCCC(CCC)C(NC(C)=O)C1CC(C(=O)O)CC1N=C(N)N,Influenza A virus,Influenza A/Victoria/3/75 (H3N2),MDCK,,,EC50,,0.06 µM
NC(=S)Nc1cccc(OCCCCCOc2ccccc2-c2ccccc2)c1,Hepatitis C virus,,Ava5-EG(delta4AB)SEAP,reporter gene / fluorescence,,EC50,,0.001–1 µM
CCC(CC)O[C@@H]1C=C(C(=O)O)C[C@H](N)[C@H]1NC(C)=O,Influenza A virus,Influenza A H3N2 isolate C32C,MDCK,plaque count,,EC50,,0.075 µg/mL
CO[C@H]1/C=C/O[C@@]2(C)Oc3c(C)c(O)c4c(O)c(c5c(c4c3C2=O)NC2(CCN(CC(C)C)CC2)N=5)=NC(=O)/C(C)=C\C=C\[C@H](C)[C@H](O)[C@@H](C)[C@@H](O)[C@@H](C)[C@H](OC(C)=O)[C@@H]1C,Mycobacterium avium intracellulare,SHE,,,,MIC,,1 µg/mL
O=c1[nH]c(=O)n([C@@H]2O[C@H](CO)[C@@H](O)[C@@H]2O)cc1/C=C/Cl,Varicella zoster virus,HIRAI,HELF,plaque count,,inhibition,0.001 µg/mL,97%
Cc1ccc2oc(=O)n(-c3ccc(Br)cc3)c(=S)c2c1,Mycobacterium kansasii,6509/96,,,21 d,MIC,,4 µM
C/C=C/C/C=C/CCC(=O)[C@H]1O[C@H]1C(N)=O,Escherichia coli,UB1005/PEMR2.1,,,,MIC,,10 µg/mL
COC(=O)N[C@H](C(=O)N1CCCC1c1ncc(-c2ccc(-c3ccc(-c4cnc([C@@H]5CC(C)CN5C(=O)[C@@H](NC(=O)CO)C(C)C)[nH]4)cc3)cc2)[nH]1)C(C)C,Hepatitis C virus,1a,Lunet,luciferase,,EC50,,0.0000251 µM
Cc1cn([C@@H]2O[C@H](CO)[C@@H](O)[C@@H]2O)c(=O)[nH]c1=O,Varicella zoster virus,Ohtomo,HELF,plaque count,,inhibition,1 µg/mL,100%
CCC(CC)[C@H](NC(C)=O)[C@@H]1C[C@@H](C(=O)O)C[C@H]1N=C(N)N,Influenza A virus,H1N1 A/TEXAS/36/91,MDCK,,,EC50,,0.1 µM
COc1cc(OCCCCCOc2cccc(NC(N)=S)c2)cc(OC)c1OC,Hepatitis C virus,,Ava5-EG(delta4AB)SEAP,reporter gene / fluorescence,,EC50,,0.001–1 µM
Oc1ccc(O)c(C=Nc2ccccc2O)c1,Cryptococcus gattii,29/10893,,,,MIC99,,8 µg/mL
Nc1ncnc2c1ncn2[C@@H]1C[C@H](Sc2ccccc2)[C@@H](O)[C@H]1O,Measles virus,,CV-1,cytopathic effect,,EC50,,>100 µg/mL
OC[C@H]1O[C@@H](n2c(Br)nc3cc(Cl)c(Cl)cc32)[C@H](O)[C@@H]1O,Human cytomegalovirus,R56,,virus yield,,EC95,,3 µM
C=CCc1ccc(OC)c(OC)c1,Candida albicans,ATCC 10261,,turbidity,,MIC90,,345 µg/mL
N=C(N)c1ccc2nc(-c3ccc(-c4nc5ccc(C(=N)N)cc5[nH]4)[nH]3)[nH]c2c1,Candida albicans,Isolate 2281,,,,MFC,,0.78 µg/mL
O=C(Nc1c(S(=O)(=O)[O-])cc2cc(S(=O)(=O)[O-])cc(O)c2c1O)c1ccccc1,Adenovirus,TYPE 3,Human amnion AV3 cells,cytopathic effect,,inhibition,10 µg/mL,60%
CC(C)Nc1nc2cc(Cl)c(Cl)cc2n1[C@H]1O[C@@H](CO)[C@H](O)[C@@H]1O,Human cytomegalovirus,C8501,MRC-5,hybridisation,,EC50,,0.1 µM
Nc1ncnc2c1ncn2[C@@H]1C[C@H](N)[C@@H](O)[C@H]1O,Measles virus,Edmonston,CV-1,cytopathic effect,,EC50,,60 µg/mL
NC(=S)Nc1cccc(OCCCOc2ccccc2)c1,Hepatitis C virus,,Ava5-EG(delta4AB)SEAP,reporter gene / fluorescence,,EC50,,0.001–1 µM
Fc1cccc(-n2c(=S)oc3ccc(F)cc3c2=S)c1,Mycobacterium kansasii,6509/96,,,21 d,MIC,,16 µM
CCN(CC)CCNC(=S)Nc1ccc2c(c1)Cc1cc(Br)ccc1-2,Hepatitis C virus,,Ava5-EG(delta4AB)SEAP,reporter gene / fluorescence,,EC50,,0.001–1 µM
Cc1nc(NCCCCNc2ccnc3cc(Cl)ccc23)nc(-c2ccccc2[N+](=O)[O-])c1C(=O)OC(C)C,Cryptococcus neoformans,ATCC 62066,,,,MIC99,,8 µg/mL
O=C(NCc1ccc(Cl)cc1)c1c[nH]c2ccc(C#CCO)cc2c1=O,Varicella zoster virus,DYE,,plaque count,,EC50,,0.3 µM
CC(=O)N[C@H]1[C@H]([C@H](O)[C@H](O)CO)OC(C(=O)O)=C[C@@H]1N=C(N)N,Influenza A virus,Influenza A/Sydney/05/97 (H3N2),MDCK,visual reading,,EC50,,0.16 µM
Fc1ccc2oc(=S)n(-c3ccc(C(F)(F)F)cc3)c(=S)c2c1,Mycobacterium kansasii,6509/96,,,21 d,MIC,,8 µM
O=c1[nH]c(=O)n([C@H]2C[C@H](O)[C@@H](CO)O2)cc1/C=C/Br,Varicella zoster virus,Ohtomo,HELF,plaque count,,inhibition,0.01 µg/mL,100%
OC[C@H]1O[C@@H](n2c(Br)nc3cc(Cl)c(Cl)cc32)[C@H](O)[C@@H]1O,Human cytomegalovirus,AD169,MRC-5,plaque count,,EC50,,0.31 µM
NC(=S)Nc1cccc(OCCCCCOc2ccnc3ccccc23)c1,Hepatitis C virus,,Ava5-EG(delta4AB)SEAP,reporter gene / fluorescence,,EC50,,0.001–1 µM
Oc1ccccc1N=Cc1ccc2c(c1)OCO2,Cryptococcus gattii,L24/01,,,,MIC99,,8 µg/mL
Cn1cc(C(=O)NCc2ccc(Cl)cc2)c(=O)c2cc(CN3CCOCC3)ccc21,Varicella zoster virus,GE varicella isolate,HFF,plaque count,,EC50,,0.1 µM
CC(C)Oc1ccc(-n2c(C(=O)NCc3ccccc3)c3n(c2=O)CCN(C(=O)c2ccc(Br)c(Cl)c2)C3)cc1,Hepatitis B virus,,HepG2.117,PCR,,EC50,,0.1–0.5 µM
Nc1ncnc2c1ncn2[C@@H]1CC[C@@H](O)[C@H]1O,Measles virus,Chicago,CV-1,cytopathic effect,,EC50,,<0.1 µg/mL
C[C@@H](c1ncncc1F)[C@](O)(Cn1cncn1)c1ccc(F)cc1F,Cryptococcus gattii,A 47496,,broth dilution,,MIC,,0.008 µg/mL
Nc1nc2c(ncn2C=C2CC2CO)c(=O)[nH]1,Human cytomegalovirus,VR4760 (ganciclovir-resistant),,plaque count,,EC90,,4.5 µM
N#Cc1cc([N+](=O)[O-])ccc1Oc1ccc(Cl)c(Cl)c1,Coxsackie virus,TYPE B4,VERO,plaque count,,inhibition,0.06 µg/mL,0%
Cc1nc(NCCCCNc2ccnc3cc(Cl)ccc23)nc(-c2ccccc2)c1C(=O)OC(C)C,Cryptococcus gattii,ATCC 32608,,,,MIC99,,16 µg/mL
CCCC(CCC)C(NC(C)=O)C1C(N=C(N)N)CC(C(=O)O)C1O,Influenza A virus,Influenza A/Johannesburg/33/94 (H3N2),MDCK,,,EC50,,0.09 µM
O=S(=O)([O-])c1cc(S(=O)(=O)[O-])c2cc(NS(=O)(=O)c3ccccc3)ccc2c1,Herpes simplex virus,,Human amnion AV3 cells,cytopathic effect,,inhibition,10 µg/mL,0%
O=C(NCc1ccccc1)c1c2n(c(=O)n1-c1ccc(N3CCC3=O)cc1)CCN(C(=O)c1ccc(Br)c(Cl)c1)C2,Hepatitis B virus,,HepG2.117,PCR,,EC50,,0.5–5 µM
Cc1cc(CCCOc2c(C)cc(-c3noc(C(F)(F)F)n3)cc2C)on1,Rhinovirus,Isolate 11,OHIO HELA-I,cytopathic effect / visual reading,,EC50,,0.03 µg/mL
CCO/N=C/c1ccc(OCCC2CCN(c3ccc(Cl)nn3)CC2)cc1,Rhinovirus,CH47 (ICAM-1 receptor group 57),KB,neutral red,,EC50,,0.103 µM
C[C@H](NC(=O)c1c2n(c(=O)n1-c1ccc(OCC(F)(F)F)cc1)CCN(C(=O)c1ccc(Br)c(Cl)c1)C2)c1ccc(OC2COC2)cc1F,Hepatitis B virus,,HepG2.117,,,EC50,,0.1–0.5 µM
Nc1ncnc2c1ncn2[C@H]1C[C@@H](N)[C@H](O)[C@@H]1O,Measles virus,,CV-1,cytopathic effect,,EC50,,>100 µg/mL
Cc1ccc(-n2c(=O)oc3ccc(F)cc3c2=S)cc1,Mycobacterium kansasii,6509/96,,,14 d,MIC,,1 µM
O=S(=O)(O)c1ccc2ccc(S(=O)(=O)O)cc2c1,Herpes simplex virus,,Human conjunctiva cells,cytopathic effect,,inhibition,10 µg/mL,0%

The last 5 rows once more:

compound,organism,strain,cells,method,conditions,endpoint,tested at,result
CCO/N=C/c1ccc(OCCC2CCN(c3ccc(Cl)nn3)CC2)cc1,Rhinovirus,CH47 (ICAM-1 receptor group 57),KB,neutral red,,EC50,,0.103 µM
C[C@H](NC(=O)c1c2n(c(=O)n1-c1ccc(OCC(F)(F)F)cc1)CCN(C(=O)c1ccc(Br)c(Cl)c1)C2)c1ccc(OC2COC2)cc1F,Hepatitis B virus,,HepG2.117,,,EC50,,0.1–0.5 µM
Nc1ncnc2c1ncn2[C@H]1C[C@@H](N)[C@H](O)[C@@H]1O,Measles virus,,CV-1,cytopathic effect,,EC50,,>100 µg/mL
Cc1ccc(-n2c(=O)oc3ccc(F)cc3c2=S)cc1,Mycobacterium kansasii,6509/96,,,14 d,MIC,,1 µM
O=S(=O)(O)c1ccc2ccc(S(=O)(=O)O)cc2c1,Herpes simplex virus,,Human conjunctiva cells,cytopathic effect,,inhibition,10 µg/mL,0%